Measurements reported in PubChem BioAssay AID624099 (ICCB-Longwood, 2012)
The deposit covers about 21,000 reagents; shown is a random part of them. 497 of them (2.4%) count as active. 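Higher z means weaker E2 silencing; only reporter increases were scored, and knock-downs that hurt cell survival may mask genuine repressor factors.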

- Screen: 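Knock-downs relieving repression by E2 of an HPV18 LCR luciferase reporter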 (primary screen)
- System: human C33A cervical carcinoma cells (HPV-negative) stably expressing BPV1 E2 and an HPV18 LCR luciferase reporter
- Reagent: siRNA pool against human genes, 40 nM
- Time to read-out: 72 h
- Measured: 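HPV18 LCR reporter light per well, converted to plate-wise z-scores that exclude control wells, and averaged over triplicate plates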
- Scale: mean z-score and z-score: higher = stronger reporter signal, weaker E2 silencing
- Hit rule: 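Hit if mean z-score reaches 2 and two or more of three replicate z-scores also reach 2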

| Gene | mean z-score | z-score, replicate A | z-score, replicate B | z-score, replicate C | call |
| --- | --- | --- | --- | --- | --- |
| PIGA (phosphatidylinositol glycan anchor biosynthesis class A) | -1.19 | -1.14 | -1.09 | -1.34 | inactive |
| PHLDA1 (pleckstrin homology like domain family A member 1) | 1.46 | 1.51 | 1.38 | 1.5 | inactive |
| MYO5A (myosin VA) | 0.92 | 0.94 | 0.8 | 1.03 | inactive |
| BPY2 (basic charge Y-linked 2) | -0.73 | -0.51 | -0.83 | -0.85 | inactive |
| EGLN2 (egl-9 family hypoxia inducible factor 2) | 3.14 | 3.08 | 3.34 | 3 | active |
| LOC402641 (RAS like proto-oncogene A pseudogene) | 0.12 | 0.15 | 0.22 | -0.01 | inactive |
| HSD17B11 (hydroxysteroid 17-beta dehydrogenase 11) | 0.83 | 0.77 | 0.65 | 1.07 | inactive |
| RFC3 (replication factor C subunit 3) | 0.22 | 0.08 | 0.31 | 0.28 | inactive |
| SELENOT (selenoprotein T) | -0.63 | -0.62 | -0.35 | -0.9 | inactive |
| GPR158 (G protein-coupled receptor 158) | -0.36 | -0.47 | -0.57 | -0.03 | inactive |
| ZNF18 (zinc finger protein 18) | -0.58 | -0.62 | -0.52 | -0.59 | inactive |
| PGA5 (pepsinogen A5) | 0.11 | 0.24 | 0.02 | 0.06 | inactive |
| UFSP1 (UFM1 specific peptidase 1) | -0.57 | -0.27 | -0.75 | -0.7 | inactive |
| PPP2R2A (protein phosphatase 2 regulatory subunit Balpha) | -0.15 | -0.06 | -0.2 | -0.2 | inactive |
| TBXAS1 (thromboxane A synthase 1) | -0.11 | -0.66 | -0.17 | 0.49 | inactive |
| PPIAP72 (peptidylprolyl isomerase A pseudogene 72) | 1.21 | 1.45 | 1.25 | 0.95 | inactive |
| LIMA1 (LIM domain and actin binding 1) | -0.75 | -0.42 | -0.97 | -0.87 | inactive |
| AQP7 (aquaporin 7) | -0.64 | -0.45 | -0.61 | -0.86 | inactive |
| MADD (MAP kinase activating death domain) | 0.7 | 0.67 | 0.61 | 0.82 | inactive |
| PPP2R5C (protein phosphatase 2 regulatory subunit B'gamma) | 0.17 | 0.08 | 0.28 | 0.13 | inactive |
| FAM32A (family with sequence similarity 32 member A) | -0.15 | -0.11 | -0.45 | 0.11 | inactive |
| CCDC102B (coiled-coil domain containing 102B) | -1.37 | -1.19 | -1.31 | -1.62 | inactive |
| ZFAND2A (zinc finger AN1-type containing 2A) | 0.03 | 0.45 | -0.34 | -0.03 | inactive |
